ChEMBL document CHEMBL1157932, “Prenylated pterocarpans as bacterial neuraminidase inhibitors” (Bioorg Med Chem, 2010)
Active and inactive are the calls of the source. The calls are words filed in the database; no cut-off is given here.

Tests used:
[1] = target: T1, Sialidase (Clostridium perfringens) (UniProt P10481); assay: Inhibition of Clostridium perfringens neuraminidase assessed as inhibition of 4-MU-NANA hydrolysis after 10 mins by spectrofluorimetry
T1 sequence (whole entry): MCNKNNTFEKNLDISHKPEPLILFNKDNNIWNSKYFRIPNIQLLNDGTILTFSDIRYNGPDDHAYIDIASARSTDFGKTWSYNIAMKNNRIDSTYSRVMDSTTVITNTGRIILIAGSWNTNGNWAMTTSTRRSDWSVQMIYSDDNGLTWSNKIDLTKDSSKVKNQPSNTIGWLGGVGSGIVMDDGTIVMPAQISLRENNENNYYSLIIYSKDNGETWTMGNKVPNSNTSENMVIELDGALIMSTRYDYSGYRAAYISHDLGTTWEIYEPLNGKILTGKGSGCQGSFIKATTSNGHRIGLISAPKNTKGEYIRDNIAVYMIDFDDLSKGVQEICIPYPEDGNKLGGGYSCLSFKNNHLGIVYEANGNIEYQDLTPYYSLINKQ
In short: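 Enzyme at 0.05 U/mL in 0.04 M sodium acetate pH 5.0 with compound (DMSO stock diluted in buffer) and 4-MU-NANA (1 mM stock); 10 min at 37 °C. Stopped with 0.1 M glycine–NaOH pH 10.4; 4-methylumbelliferone read at ex 360/em 440 nm. IC50 from regression, mean ± SD of three replicates.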

[2] = target: T1, Sialidase (Clostridium perfringens); assay: Reversible inhibition of Clostridium perfringens neuraminidase at 10 times IC50 pre-incubated for 15 mins by spectrofluorimetry
In short: (§1)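 Reversibility by jump dilution: enzyme pre-incubated 15 min with compound at 100-fold assay enzyme level (0.125 U/mL), then diluted 1/100 into acetate buffer with substrate. Progress curves of fluorescence over 30 min compared with enzyme pre-incubated and diluted without compound.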

[3] = target: T1, Sialidase (Clostridium perfringens); assay: Reversible inhibition of Clostridium perfringens neuraminidase at 0.1 times IC50 pre-incubated for 15 mins by spectrofluorimetry; in short: as §1
[4] = target: T1, Sialidase (Clostridium perfringens); assay: Inhibition of Clostridium perfringens neuraminidase at 10 times IC50 by spectrofluorimetry; in short: as §1
[5] = target: T1, Sialidase (Clostridium perfringens); assay: Inhibition of Clostridium perfringens neuraminidase at 0.1 times IC50 by spectrofluorimetry; in short: as §1
[6] = target: T1, Sialidase (Clostridium perfringens); assay: Noncompetitive inhibition of Clostridium perfringens neuraminidase by Lineweaver-Burke plot analysis
[7] = target: T1, Sialidase (Clostridium perfringens); assay: Noncompetitive inhibition of Clostridium perfringens neuraminidase by Dixon plot analysis
In short: (§2)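 Dixon plots of 1/v against [I] at each substrate concentration, rates from unquenched fluorometric 4-MU-NANA hydrolysis (ex 360/em 440 nm); Ki read from the x-axis value where lines intersect.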

[8] = target: T1, Sialidase (Clostridium perfringens); assay: Competitive inhibition of Clostridium perfringens neuraminidase by Lineweaver-Burke plot analysis
[9] = target: T1, Sialidase (Clostridium perfringens); assay: Competitive inhibition of Clostridium perfringens neuraminidase by Dixon plot analysis; in short: as §2

**Q.** How did the Activity [1] turn out when `COc1ccc2c3c(oc2c1CC=C(C)C)-c1ccc(O)cc1OC3` [ERYVARIN D] was run?
**A.** The Activity was “Dose-dependent effect”.

**Q.** What about the inhibition [2] of the same compound?
**A.** The inhibition was “Active”.

**Q.** And the inhibition [3]?
**A.** Its inhibition is “Active”.

**Q.** What about the inhibition [4] of the same compound?
**A.** The inhibition was 91%.

**Q.** And the inhibition [5]?
**A.** The inhibition was 9%.

**Q.** And the inhibition [6]?
**A.** The inhibition was “Active”.

**Q.** What about the inhibition [7] of the same compound?
**A.** The inhibition was “Active”.

**Q.** Which Activity [1] does the source give for `CC1(C)C=Cc2c(ccc3c2O[C@H]2c4ccc(O)cc4OC[C@@H]32)O1` [PHASEOLIN] here?
**A.** Its Activity is “Dose-dependent effect”.

**Q.** And the inhibition [2]?
**A.** Its inhibition is “Active”.

**Q.** What about the inhibition [3] of the same compound?
**A.** Its inhibition is “Active”.

**Q.** What about the inhibition [4] of the same compound?
**A.** Its inhibition is 91%.

**Q.** And the inhibition [5]?
**A.** Its inhibition is 9%.

**Q.** What about the inhibition [8] of the same compound?
**A.** The inhibition was “Active”.

**Q.** What about the inhibition [9] of the same compound?
**A.** The inhibition was “Active”.
